Measured values published in patent publication US5753610A, “Perfume containing (6E) -2,3-dihydrofarnesol” (Takasago International Corporation, priority 1995, dated 1998).

Experiment: Evaluation of fragrance qualities by seven skilled panelists

| SMILES | perfume value / usability as cyclamen-like floral perfume | fragrance qualities |
| --- | --- | --- |
| CC(C)=CCC/C(C)=C/CCC(C)CCO (centres unmarked) [(a), (6E)-2,3-dihydrofarnesol] | highly useful as a cyclamen-like floral perfume |  |
| CC(C)=CCC/C(C)=C/CCC(C)CCO (centres unmarked) [(b), (6E)-2,3-dihydrofarnesol] | usable as a cyclamen-like floral perfume | somewhat inferior to the compound (a) in the floral feel, fragrance intensity and richness |
| CC(C)=CCC/C(C)=C/CCC(C)CCO (centres unmarked) [(c), 2,3-dihydrofarnesol] | poor in the perfume value due to its metallic and woody fragrance | metallic, woody and green fragrance with a poor floral feel |
| CC(C)=CCC/C(C)=C/CC[C@H](C)CCO [(d), (3S)-(6E)-2,3-dihydrofarnesol] |  | somewhat stronger than that of the compound (a) and long-lasting, clean, graceful and floral similar to cyclamen |
| CC(C)=CCC/C(C)=C/CC[C@@H](C)CCO [(e), (3R)-(6E)-2,3-dihydrofarnesol] | poor in the perfume value | weak fragrance with a not floral but somewhat metallic and balsamic side note |
